Assay [1] can be described thus: Antiviral activity against Influenza A virus (A/WSN/1933(H1N1)) expressing nucleoprotein S377G mutant assessed as virus-mediated cytopathic effect in MDCK cells. (In general: Damage to the host cells serves as the signal in cytopathic effect assays.)
The nature of assay [2]: Antiviral activity against Influenza A virus (A/WSN/1933(H1N1)) expressing nucleoprotein Y52H mutant assessed as virus-mediated cytopathic effect in MDCK cells.
Assay [3] can be described thus: Antiviral activity against Influenza A virus (A/WSN/1933(H1N1)) expressing nucleoprotein Y289H mutant assessed as virus-mediated cytopathic effect in MDCK cells.

This is an account of results in ChEMBL document CHEMBL3616452 (Eur J Med Chem, 2015).

pEC50: −log10 of the molar value.

As for `Cn1c(=O)c2c(-c3ccccc3)n3c(c2n(C)c1=O)C(c1ccccc1F)OCC3(C)C` (stereo not drawn), the figures for the negative logarithm of the EC50 (pEC50) in assay [1], in assay [2] and in assay [3] were 5.10, 6.00 and 5.85, respectively.

As a reminder, the pEC50 is −log10 of the EC50, conventionally taken in molar units.
